Mutational scan of HIV-1 Vif (1203) in cells with APOBEC3G

Source: Langley et al. 2025, preprint (doi:10.1101/2025.10.20.683452), supplementary data.

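Pooled viruses with one designed change each in Vif went through two 72 h rounds in SupT1 cells expressing APOBEC3G. Frequencies after the second round, in three biological replicates, were compared with the merged pool after the first round. Changes do not touch integrase, since the pol overlap was removed.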

Protein: Vif of HIV-1 1203 (a subtype B primary isolate). Residues 12-115 were scanned and are shown below; the first letter is residue 12.
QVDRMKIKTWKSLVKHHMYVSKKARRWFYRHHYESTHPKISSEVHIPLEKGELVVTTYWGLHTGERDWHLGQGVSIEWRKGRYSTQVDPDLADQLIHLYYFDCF

The score is log2 enrichment against the wild-type codon: higher is better tolerated, lower is depleted.
A change reads original residue, position, new residue.
The median of three replicates is given, with the replicates in brackets.
Input reads are the counts in the merged round-one pool, before selection.
Positive scores are uncertain; some enriched variants did not exclude APOBEC3G in a separate test.

change | input reads | log2 enrichment (median)
P58A | 253 | -1.94 (-1.64 -2.15 -1.94)
P58C | 212 | -1.87 (-2.09 1.64 -1.87)
P58G | 440 | 0.43 (0.64 0.43 0.40)
P58H | 1311 | -2.02 (-2.59 0.22 -2.02)
P58L | 294 | -1.25 (-1.25 -1.06 -2.16)
P58Q | 804 | -2.39 (-2.70 -2.39 -2.20)
P58R | 276 | -2.06 (-3.01 1.65 -2.06)
P58S | 90 | -2.96 (-1.20 -3.32 -2.96)
P58V | 27 | 3.80 (2.88 3.80 4.34)
L59A | 1932 | -2.59 (-1.35 -3.42 -2.59)
L59C | 175 | -1.14 (-1.14 -2.43 -0.58)
L59F | 258 | -2.26 (-2.26 -2.06 -2.40)
L59I | 595 | -2.90 (-2.90 -3.01 -2.66)
L59K | 180 | -2.41 (-2.67 -1.54 -2.41)
L59R | 231 | -1.90 (-2.79 -1.90 -1.08)
L59T | 210 | -1.76 (-2.45 -1.76 -1.28)
L59W | 223 | -2.53 (-2.53 -2.54 -1.80)
L59Y | 2689 | -2.32 (-2.32 0.66 -2.49)
E60D | 33 | 0.37 (1.87 -1.15 0.37)
E60F | 19 | 0.82 (0.82 5.41 0.49)
E60K | 329 | -2.00 (-1.76 -2.52 -2.00)
E60N | 590 | -0.34 (5.31 -1.34 -0.34)
E60P | 41 | -0.59 (-1.41 4.67 -0.59)
E60T | 169 | -2.59 (-2.59 -2.64 -1.73)
E60V | 231 | -2.35 (-2.30 -2.35 -2.71)
K61E | 19 | -1.12 (-2.87 -1.12 1.39)
G62D | 39 | -1.09 (-1.09 -1.43 0.56)
G62Q | 147 | -3.67 (-3.48 -5.65 -3.67)
G62S | 2243 | -2.19 (-0.84 -3.20 -2.19)
G62W | 180 | -3.96 (-2.92 -4.35 -3.96)
E63A | 55 | 3.86 (3.86 -1.06 4.85)
E63C | 144 | -1.70 (-2.94 -1.70 1.75)
E63K | 179 | -1.81 (-1.81 -2.75 1.56)
E63L | 496 | -1.69 (-1.69 -1.84 1.86)
E63Q | 285 | -1.73 (-2.34 -1.73 -1.62)
E63S | 523 | 0.51 (0.80 0.51 -1.19)
E63V | 187 | -2.66 (-2.66 -2.28 -3.22)
L64F | 66 | -0.56 (-0.56 -1.31 0.32)
L64H | 171 | -2.10 (-2.10 -2.38 -0.49)
L64I | 137 | -2.07 (-1.99 -2.07 -2.80)
L64P | 158 | -2.56 (-5.90 -2.56 0.94)
L64T | 141 | -2.00 (-1.64 -3.24 -2.00)
L64W | 34 | -1.95 (-3.70 -1.95 2.70)
V65E | 114 | -2.45 (-2.61 -2.45 -1.69)
V65F | 243 | -1.65 (-1.65 -1.71 0.03)
V65G | 315 | -2.64 (-2.79 -2.64 -2.07)
V65S | 18 | -2.63 (-2.79 -2.63 -0.64)
V66A | 37 | -1.34 (1.84 -1.34 -3.27)
V66D | 57 | -4.28 (-4.45 -4.28 -3.89)
V66E | 77 | -2.55 (-2.55 -2.39 -4.32)
V66G | 245 | -1.90 (-1.90 -2.29 -1.59)
V66N | 248 | -1.47 (-1.43 -2.69 -1.47)
V66R | 176 | -1.81 (-2.16 -1.81 -1.80)
V66S | 208 | -1.28 (-2.84 -1.28 0.09)
V66T | 340 | -1.81 (-1.80 -2.46 -1.81)
V66W | 278 | -2.70 (-2.33 -3.10 -2.70)
T67D | 205 | -3.10 (-3.10 -4.53 -2.26)
T67E | 571 | -2.46 (1.20 -2.46 -3.11)
T67F | 79 | -2.03 (-2.58 -1.93 -2.03)
T67I | 209 | -2.05 (-1.65 -2.05 -2.05)
T67L | 552 | -2.41 (-2.41 -2.78 -1.86)
T67N | 36 | 2.61 (2.33 3.93 2.61)
T67W | 231 | -1.64 (-2.19 -1.64 -0.76)
T68C | 83 | 3.80 (3.97 3.80 -0.49)
T68D | 219 | -1.81 (-1.81 -2.09 -0.84)
T68E | 34 | 0.04 (0.04 -0.70 4.70)
T68K | 19 | 1.61 (1.41 4.72 1.61)
T68L | 17 | -1.10 (-1.10 -2.53 -0.56)
T68R | 185 | -0.98 (-2.92 -0.98 -0.91)
T68W | 35 | -0.38 (5.64 -0.38 -0.84)
Y69N | 320 | -2.52 (-2.52 -2.66 -1.96)
Y69Q | 243 | -1.87 (-1.09 -2.44 -1.87)
Y69W | 179 | -1.61 (-1.68 -1.52 -1.61)
W70G | 183 | -1.64 (1.72 -2.78 -1.64)
W70V | 344 | -2.77 (-2.24 -2.77 -3.00)
W70Y | 389 | -2.39 (1.36 -3.33 -2.39)
G71A | 237 | -1.95 (-1.95 -2.22 -1.81)
G71K | 143 | 1.29 (1.45 1.29 0.85)
G71T | 262 | -2.58 (-2.71 -1.93 -2.58)
G71W | 254 | -1.20 (-2.32 -1.20 2.95)
G71Y | 398 | -2.53 (-1.60 -2.53 -2.55)
L72A | 161 | 0.11 (-0.44 0.11 5.22)
L72C | 481 | -2.23 (1.07 -2.95 -2.23)
L72D | 115 | -3.70 (-3.12 -3.70 -4.81)
L72F | 1199 | -1.93 (-1.93 -2.51 0.01)
L72I | 222 | -2.93 (-2.93 -4.65 -1.85)
L72S | 60 | -4.35 (-4.51 -4.35 -3.88)
L72V | 19 | -1.13 (-1.29 -1.13 3.68)
H73D | 649 | -2.73 (-2.32 -2.91 -2.73)
H73G | 154 | -2.98 (-4.28 -2.53 -2.98)
H73K | 70 | -2.59 (-4.73 -2.25 -2.59)
H73Q | 165 | -2.79 (-2.79 -2.63 -3.82)
H73R | 38 | -3.30 (-3.86 -2.11 -3.30)
H73T | 186 | -2.96 (-2.96 -3.65 -2.12)

Not every substitution is listed.
The scan is noisy: the rank correlation of replicates is about 0.4 to 0.65, and variants with under about 50 input reads tend to read too high.